A mixed list of measured activities; the numbers were collected in NIAID ChemDB.

All rows: target-level tests; agent: Hepatitis C virus; target: NS3/NS4A protease

Inhibition is in % at the dose shown (toxicity tests: loss of growth or viability). Two numbers with a dash give a range or band. Conditions beyond the fields shown may differ between rows. ICn: concentration for n% inhibition.

C=CC1CC1(NC(=O)[C@@H]1C[C@@H](OC(=O)Nc2ccccc2C(=O)OC(C)C)CN1C(=O)[C@@H](NC(=O)OC(C)(C)C)C(C)(C)C)C(=O)NS(=O)(=O)C1CC1 ; strain or isolate: BMS/H77C/J416S ; read-out: IC50 ; value: <0.1 µM
C=CC1C[C@@]1(NC(=O)[C@@H]1C[C@@H](Oc2cc(-c3ccccc3)nc3cc(OC)ccc23)CN1C(=O)[C@@H](NC(=O)OCCF)C(C)(C)C)C(=O)NS(=O)(=O)C1(Cc2ccccc2)CC1 ; strain or isolate: BMS ; read-out: IC50 ; value: <0.05 µM
COc1cc(O[C@@H]2C[C@@H](C(=O)NC3(C(=O)NS(=O)(=O)C4CC4)CC34CCC4)N(C(=O)[C@@H](NC(=O)OC(C)(C)C)C(C)(C)C)C2)c2ccc(-c3ccccc3)cc2n1 ; strain or isolate: BMS ; read-out: IC50 ; value: <0.5 µM
C=CCCCCCCCC1(S(=O)(=O)NC(=O)[C@]2(NC(=O)[C@@H]3C[C@@H](Oc4cc(-c5ccccc5)nc5cc(OC)ccc45)CN3C(=O)[C@@H](NC(=O)OC(C)(C)C)C(C)(C)C)C[C@@H]2C=C)CC1 ; strain or isolate: BMS ; read-out: IC50 ; value: <0.05 µM
CCCC(NC(=O)[C@@H]1C[C@@H](OC(=O)N2CCc3ccccc3C2)CN1C(=O)[C@H](NC(=O)[C@H](NC(=O)c1cnccn1)C(C)C)C(C)C)C(=O)C(=O)NC1CC1 ; read-out: Ki ; value: 0.22 µM
O=C(Nc1ccc(Br)cc1)c1c(O)cc(O)c([N+](=O)[O-])c1O ; method: HPLC ; read-out: inhibition ; tested at: 100 µg/mL ; value: 94.1%
C=C[C@@H]1C[C@]1(NC(=O)[C@@H]1C[C@@H](Oc2cc(-c3ccccc3)nc3cc(OC)ccc23)CN1C(=O)[C@@H](NC(=O)OC(C)(C)C)C(C)(C)C)C(=O)NS(=O)(=O)c1ccc(F)c(Cl)c1 ; strain or isolate: BMS ; read-out: IC50 ; value: <0.05 µM
C=C[C@H]1C[C@@]1(NC(=O)[C@@H]1C[C@@H](Oc2cc(-c3ccccc3)nc3cc(OC)ccc23)CN1C(=O)[C@@H](NC(=O)OC(C)(C)C)C(C)(C)C)C(=O)NS(=O)(=O)C1(Cc2ccc(F)cc2)CC1 ; strain or isolate: BMS ; read-out: IC50 ; value: <0.05 µM
CCC[C@H](NC(=O)[C@@H]1[C@@H](Cc2ccccc2)CCN1C(=O)[C@H](NC(=O)[C@H](NC(=O)c1cnccn1)C1CCCCC1)C(C)(C)C)C(=O)C(=O)NC1CC1 ; strain or isolate: Hepatitis C virus ; read-out: Ki ; value: 0.31 µM
C=CC1CC1(NC(=O)[C@@H]1C[C@@H](OC(=O)Nc2cc(C)ccc2Cl)CN1C(=O)[C@@H](NC(=O)OC(C)(C)C)C(C)(C)C)C(=O)NS(=O)(=O)C1CC1 ; strain or isolate: BMS/H77C/J416S ; read-out: IC50 ; value: <0.1 µM
C=CCNC(=O)C(=O)[C@H](CC1CCC1)NC(=O)[C@@H]1[C@@H]2[C@H](CN1C(=O)[C@@H](NC(=O)[C@@H](NC(=O)c1cnccn1)C1CCCCC1)C(C)(C)C)C2(C)C ; read-out: Ki ; value: 0.018 µM
C=CCNC(=O)C(=O)C(CCC)NC(=O)[C@H]1C(C(=O)[C@@H](NC(=O)[C@@H](NC(=O)[C@H](CCC(=O)OC(C)(C)C)NC(=O)[C@H](CCC(=O)OC(C)(C)C)NC(C)=O)C(C)C)C(C)C)NC(=O)N1CC(=O)OCC ; read-out: Ki ; value: 30 µM
C=CC1C[C@@]1(NC(=O)[C@@H]1C[C@@H](Oc2cc(-c3ccccc3)nc3cc(OC)ccc23)CN1C(=O)[C@@H](NC(=O)Oc1ccc(C(F)(F)F)cc1)C(C)(C)C)C(=O)NS(=O)(=O)C1(Cc2ccccc2)CC1 ; strain or isolate: BMS ; read-out: IC50 ; value: 0.05–0.5 µM
C=CC1CC1(NC(=O)[C@@H]1C[C@@H](OC(=O)Nc2cccc(C)c2C)CN1C(=O)[C@@H](NC(=O)OC(C)(C)C)C(C)(C)C)C(=O)NS(=O)(=O)C1CC1 ; strain or isolate: BMS/H77C/J416S ; read-out: IC50 ; value: <0.1 µM
C=CCOC(=O)CNC(=O)C(=O)C(CCC)NC(=O)[C@H]1C(C(=O)[C@@H](NC(=O)[C@@H](NC(=O)[C@H](CCC(=O)OC(C)(C)C)NC(=O)[C@H](CCC(=O)OC(C)(C)C)NC(C)=O)C(C)C)C(C)C)NC(=O)N1Cc1ccccc1 ; read-out: Ki ; value: >100 µM
C=CC1CC1(NC(=O)[C@@H]1C[C@@H](OC(=O)Nc2ccccc2Br)CN1C(=O)[C@@H](NC(=O)OC(C)(C)C)C(C)(C)C)C(=O)NS(=O)(=O)C1CC1 ; strain or isolate: BMS/H77C/J416S ; read-out: IC50 ; value: 0.1–1 µM
C=CC1CC1(NC(=O)[C@@H]1C[C@@H](Oc2cc(-c3ccccc3)nc3cc(OC)ccc23)CN1C(=O)[C@@H](NC(=O)OC1CCCC1)C(C)(C)C)C(=O)NS(=O)(=O)C1(C)CC1 ; strain or isolate: BMS ; read-out: IC50 ; value: <0.05 µM
O=C(Nc1ccc(Oc2ccccc2)cc1)c1c(O)cc(O)c([N+](=O)[O-])c1O ; method: HPLC ; read-out: inhibition ; tested at: 100 µg/mL ; value: 100%
C=C[C@@H]1C[C@]1(NC(=O)[C@@H]1C[C@@H](Oc2cc(-c3ccccc3)nc3cc(OC)ccc23)CN1C(=O)[C@@H](NC(=O)CC)C(C)(C)C)C(=O)NS(=O)(=O)C1CC1 ; strain or isolate: BMS ; read-out: IC50 ; value: <0.05 µM
CC[C@@H](C=O)NC(=O)[C@@H]1C[C@@H](OCc2ccccc2)CN1C(=O)[C@@H](NC(=O)[C@@H](NC(=O)c1cnccn1)C(C)C)C(C)C ; read-out: Ki ; value: 12 µM
CC[C@@H]1C[C@]1(NC(=O)[C@@H]1C[C@@H](Oc2cc(-c3ccccc3)nc3cc(OC)ccc23)CN1C(=O)[C@@H](NC(=O)OC(C)(C)C)C(C)C)C(=O)NS(C)(=O)=O ; strain or isolate: BMS ; read-out: IC50 ; value: <0.5 µM
O=C(NCCc1ccccc1)c1c(O)cc(O)c([N+](=O)[O-])c1O ; method: HPLC ; read-out: inhibition ; tested at: 100 µg/mL ; value: 69.8%
C=CC1CC1(NC(=O)[C@@H]1C[C@@H](OC(=O)NCc2ccccc2C)CN1C(=O)[C@@H](NC(=O)OC(C)(C)C)C(C)(C)C)C(=O)NS(=O)(=O)C1CC1 ; strain or isolate: BMS/H77C/J416S ; read-out: IC50 ; value: 0.1–1 µM
C=CCOC(=O)CNC(=O)C(=O)C(CCC)NC(=O)[C@H]1C(C(=O)[C@@H](NC(=O)[C@@H](NC(=O)[C@H](CCC(=O)OC(C)(C)C)NC(=O)[C@H](CCC(=O)OC(C)(C)C)NC(C)=O)C(C)C)C(C)C)NC(=O)N1Cc1ccc(C)c(C)c1 ; read-out: Ki ; value: >100 µM
CCC[C@H](NC(=O)[C@@H]1[C@@H](CC)CCN1C(=O)[C@H](NC(=O)[C@H](NC(=O)c1cnccn1)C1CCCCC1)C(C)(C)C)C(=O)C(=O)NC1CC1 ; strain or isolate: Hepatitis C virus ; read-out: Ki ; value: 0.15 µM
C=C[C@@H]1C[C@]1(NC(=O)[C@@H]1C[C@@H](Oc2cc(-c3ccccc3)nc3cc(OC)ccc23)CN1C(=O)[C@@H](NC(=O)OC(C)(C)C)C(C)(C)C)C(=O)NS(=O)(=O)c1cccc(C#N)c1 ; strain or isolate: BMS ; read-out: IC50 ; value: <0.05 µM
CCC[C@H](NC(=O)[C@@H]1[C@@H](C2CCCC2)CCN1C(=O)[C@H](NC(=O)[C@H](NC(=O)c1cnccn1)C1CCCCC1)C(C)(C)C)C(=O)C(=O)NC1CC1 ; strain or isolate: Hepatitis C virus ; read-out: Ki ; value: 0.25 µM
COc1ccc(NC(=O)c2c(O)cc(O)c([N+](=O)[O-])c2O)cc1OC ; method: HPLC ; read-out: inhibition ; tested at: 100 µg/mL ; value: 64.9%
C=C[C@H]1C[C@@]1(NC(=O)[C@@H]1C[C@@H](Oc2cc(-c3ccccc3)nc3cc(OC)ccc23)CN1C(=O)[C@@H](NC(=O)OC(C)(C)C)C(C)(C)C)C(=O)NS(=O)(=O)C1(Cc2c(C)noc2C)CC1 ; strain or isolate: BMS ; read-out: IC50 ; value: 0.05–0.5 µM
C=CC1CC1(NC(=O)[C@@H]1C[C@@H](OC(=O)n2c3ccccc3c3ccccc32)CN1C(=O)[C@@H](NC(=O)OC(C)(C)C)C(C)(C)C)C(=O)NS(=O)(=O)C1CC1 ; strain or isolate: BMS/H77C/J416S ; read-out: IC50 ; value: <0.1 µM
Cc1ccc(NC(=O)c2c(O)cc(O)c([N+](=O)[O-])c2O)cc1 ; method: HPLC ; read-out: inhibition ; tested at: 100 µg/mL ; value: 84.8%
C=CC1CC1(NC(=O)[C@@H]1C[C@@H](OC(=O)N(c2ccccc2)c2ccccc2)CN1C(=O)[C@@H](NC(=O)OC(C)(C)C)C(C)(C)C)C(=O)NS(=O)(=O)C1CC1 ; strain or isolate: BMS/H77C/J416S ; read-out: IC50 ; value: <0.1 µM
CCC[C@H](NC(=O)[C@@H]1[C@@H](C(C)CC)CCN1C(=O)[C@H](NC(=O)[C@H](NC(=O)c1cnccn1)C1CCCCC1)C(C)(C)C)C(=O)C(=O)NC1CC1 ; strain or isolate: Hepatitis C virus ; read-out: Ki ; value: 0.1 µM